Reference: ChEMBL document CHEMBL5728271, “Cyclohexene compounds and use thereof” (2021)

Assay: Activity assay for influenza virus neuraminidase: Experimental materials:NA (neuraminidase) solution: allantoic fluid of chicken embryo infected by influenza virus;Enzyme catalyzed reaction system: 330 mmol/L of MES buffer solution (pH 3.5); 200 μmol/L of fluorogenic substrate MUNANA (2′-(4-methylumbelliferyl)-α-D-N-acetylneuraminic acid);4 mmol/L of CaCl2 solution; Stop buffer: 14 mmol/L

Compound	IC50
COCCO[C@@H]1CCCN([C@@H]2C=C(OC=O)C[C@H](N)[C@H]2NC(C)=O)C1	< 1 nM
COCCO[C@@H]1CCCN([C@@H]2C=C(OC=O)C[C@H](NC(=N)N)[C@H]2NC(C)=O)C1	< 1 nM
CC(=O)N[C@H]1[C@H](N2CCC[C@H](OCCOC(=O)N3CCOCC3)C2)C=C(C(=O)O)C[C@@H]1N	5.5 nM
CC(=O)N[C@H]1[C@H](N2CCC[C@@H](OCCOCC3CC3)C2)C=C(OC=O)C[C@@H]1N	5.5 nM
